Measured values from several laboratories, pooled; numbers as filed in NIAID ChemDB.

All rows: tests in culture; organism: HIV-2; cells: MT-4; endpoint: EC50

ECn: concentration that inhibits the pathogen or its effect by n%. An empty or dashed field is not shown. Neighbouring rows are from separate reports.

smiles	strain	method	result
CCc1nc([N+](=O)[O-])c(N2CCN(C(=O)c3ccc(Cl)cc3)CC2)n1Cc1ccccc1	ROD	syncytia	>22.5 µg/mL
C/C(=N\Nc1nc(-c2ccc([N+](=O)[O-])cc2)cs1)c1ccc2c(c1)OCO2	ROD	MTT	>97.2 µM
Nc1nc(N)c2ncn(C[C@@H](CO)OCP(=O)(O)O)c2n1	LAV-2	cytopathic effect	≥62 µM
Cc1cn([C@@H]2O[C@@H]3CN[C@@]4(OCC(C)(C)C)CS(=O)(=O)O[C@@]34[C@H]2O[Si](C)(C)C(C)(C)C)c(=O)[nH]c1=O	ROD	-	<10 µM
C[C@@H](Cn1cnc2c(=O)[nH]c(N)nc21)OCP(=O)(O)O	LAV-2	cytopathic effect	26 µM
C/C(=N\Nc1nc(-c2ccc(Br)cc2)cs1)c1ccc2c(c1)OCO2	ROD	MTT	>41.93 µM
Cc1cc(C#N)cc(C)c1Oc1nc(NC2CCN(S(=O)(=O)c3ccc([N+](=O)[O-])cc3)CC2)nc2ccsc12	ROD	MTT	>81.73 µM
CCc1nc([N+](=O)[O-])c(N2CCN(C(=O)c3ccc([N+](=O)[O-])cc3)CC2)n1Cc1ccccc1	ROD	syncytia	>86 µg/mL
CO[C@]12CS(=O)(=O)O[C@@]13C(CN2)O[C@@H](n1cc(C)c(=O)[nH]c1=O)[C@@H]3O[Si](C)(C)C(C)(C)C	ROD	-	>50 µM
Cc1ccc(S(=O)(=O)Nc2nnc(C(C)NS(=O)(=O)c3ccc(Cl)cc3)s2)cc1	ROD	MTT	>60.53 µM
COc1cc(/C=C/c2nc(NC(=S)Nc3ccc(C)cc3)c3ccccc3n2)cc(OC)c1OC	ROD	MTT	>1.7 µg/mL
Nc1ccn([C@@H]2CS[C@H](CO)O2)c(=O)n1	ROD	MTT	2.02 µM
COc1ccccc1NC(=O)Nc1nc(/C=C/c2cc(OC)c(OC)c(OC)c2)nc2ccccc12	ROD	MTT	>2.03 µg/mL
S=c1[nH]nc(Cc2nc3n(n2)CCCCC3)o1	ROD	cytopathic effect	>68 µg/mL
Cc1cc(C#N)cc(C)c1Oc1nc(Nc2ccc(NS(=O)(=O)c3ccc(-c4ccccc4)cc3)cc2)nc2ccsc12	ROD	MTT	148.8 µM
CC1=CC(=O)NS(=O)(=O)N1COCc1ccccc1	-	cytopathic effect / MTT	>400 µg/mL
Cc1cc(C#N)cc(C)c1Oc1nc(NC2CCN(S(=O)(=O)c3ccccc3)CC2)nc2ccsc12	ROD	MTT	>6.185 µM
CCOC(=O)CNc1nc(NC(=O)Nc2ccccc2C)nc(Oc2cc(=O)oc3ccccc23)n1	ROD	MTT	>75.53 µg/mL
O=C1C=CN(COCc2ccccc2)S(=O)(=O)N1	-	cytopathic effect / MTT	>400 µg/mL
C/C(=N\Nc1nc(-c2ccc(Br)cc2)cs1)c1ccc(-n2ccnc2)cc1	ROD	MTT	>87.33 µM
CCc1nc([N+](=O)[O-])c(N2CCN(C(=O)CSC)CC2)n1Cc1ccccc1.COc1ccccc1	ROD	syncytia	>5.29 µg/mL
CCCCO[C@]12CS(=O)(=O)O[C@@]13[C@@H](CN2)O[C@@H](n1cc(C)c(=O)[nH]c1=O)[C@@H]3O	ROD	-	>125 µM
CC(C)(C)[Si](C)(C)CCOCN1C=CC(=O)N(COCC[Si](C)(C)C(C)(C)C)S1(=O)=O	-	cytopathic effect / MTT	>400 µg/mL
Cc1cc(C#N)cc(C)c1Oc1nc(Nc2ccc(NS(=O)(=O)c3ccc(C#N)cc3)cc2)nc2ccsc12	ROD	MTT	>46.73 µM
CC(C)CC(NS(=O)(=O)c1ccc(Cl)cc1)c1nnc(NS(=O)(=O)c2ccc(Br)cc2)s1	ROD	MTT	>57.63 µM
CCn1nc(CC(=O)NN=C(C)C)nc1C	ROD	cytopathic effect	>108 µg/mL
COc1cc(/C=C/c2nc(NC(=S)Nc3ccccc3C)c3ccccc3n2)cc(OC)c1OC	ROD	MTT	>4.05 µg/mL
CCCCCO[C@]12CS(=O)(=O)O[C@@]13[C@@H](CN2)O[C@@H](n1cc(C)c(=O)[nH]c1=O)[C@@H]3O[Si](C)(C)C(C)(C)C	ROD	-	>5 µM
COc1ccccc1NC(=S)Nc1nc(NCCc2ccc(OC)c(OC)c2)nc(Oc2cc(=O)oc3ccccc23)n1	ROD	MTT	>19.63 µg/mL
NC1=NS(=O)(=O)N(COCc2ccccc2)C=C1	-	cytopathic effect / MTT	>400 µg/mL
N#Cc1ccc(-c2csc(N/N=C/c3ccccc3O)n2)cc1	ROD	MTT	>104 µM
Cc1cc(C#N)cc(C)c1Oc1nc(Nc2ccc(NS(=O)(=O)c3ccc4ccccc4c3)cc2)nc2ccsc12	ROD	MTT	157.6 µM
CCn1nc(CC(=O)N/N=C/c2ccco2)nc1C	ROD	cytopathic effect	>89 µg/mL
COc1cc(/C(C)=N/Nc2nc(-c3ccc(Cl)cc3)cs2)cc(OC)c1OC	ROD	MTT	>16.39 µM
Nc1nc(N)c2ncn(C[C@H](CO)OCP(=O)(O)O)c2n1	LAV-2	cytopathic effect	21 µM
COc1cc(/C=C/c2nc(NC(=O)Nc3ccccc3Cl)c3ccccc3n2)cc(OC)c1OC	ROD	MTT	>1.69 µg/mL
Cc1cn([C@H]2C[C@H](N=[N+]=[N-])[C@@H](CO)O2)c(=O)[nH]c1=O	ROD	MTT	0.0018 µM
Nc1nc2c(ncn2C[C@@H](CO)OCP(=O)(O)O)c(=O)[nH]1	LAV-2	cytopathic effect	38 µM
CCc1nc([N+](=O)[O-])c(N2CCN(C(=O)c3cccs3)CC2)n1Cc1ccccc1	ROD	syncytia	>54.8 µg/mL
CCn1nc(Cc2n[nH]c(=S)o2)nc1C	ROD	cytopathic effect	>63.4 µg/mL
N#CC1=CN(COCc2ccccc2)S(=O)(=O)N=C1N	-	cytopathic effect / MTT	>400 µg/mL
COc1ccccc1NC(=S)Nc1nc(/C=C/c2cc(OC)c(OC)c(OC)c2)nc2ccccc12	ROD	MTT	>3.42 µg/mL
N#Cc1ccc(-c2csc(N/N=C/c3ccco3)n2)cc1	ROD	MTT	>10.04 µM
COc1cc(/C=C/c2nc(NC(=O)Nc3ccc(C)cc3)c3ccccc3n2)cc(OC)c1OC	ROD	MTT	>2.75 µg/mL
CCOC(=O)CNc1nc(Nc2ccc(OC)cc2)nc(Oc2cc(=O)oc3ccccc23)n1	ROD	MTT	>58.6 µg/mL
C/C(=N\Nc1nc(-c2ccc(Cl)cc2)cs1)c1ccc(-c2ccc(Br)cc2)cc1	ROD	MTT	>10.23 µM
CCc1nc([N+](=O)[O-])c(N2CCN(C(=O)c3ccc(Cl)cc3Cl)CC2)n1Cc1ccccc1	ROD	syncytia	>14.5 µg/mL
COc1ccc(CCNc2nc(NC(=O)Nc3ccccc3)nc(Oc3cc(=O)oc4ccccc34)n2)cc1OC	ROD	MTT	>86.93 µg/mL
C/C(=N\Nc1nc(-c2ccc(C#N)cc2)cs1)c1ccc(-n2ccnc2)cc1	ROD	MTT	>73.95 µM
CCc1nc([N+](=O)[O-])c(N2CCN(C(=O)CSc3ccccc3)CC2)n1Cc1ccccc1	ROD	syncytia	>2.74 µg/mL
NNC(=O)Cc1nc2n(n1)CCCCC2	ROD	cytopathic effect	>125 µg/mL